Active and inactive are the calls of the source. The rule behind the calls is not given here.
Target: Influenza A virus M2 proton channel (A/TW/4845/1999 H1N1)
Test: M2 proton channel binding, NMR based, influenza A virus H1N1 strain (AID 1549)
Details: NMR binding screen, M2 protein

| Structure (SMILES) | Kd |
| --- | --- |
| OC1CN2CCC1CC2 (configuration not stated) | inactive: > 4 mM |
| CP(N)(=O)Oc1ccc(Cl)cc1 (configuration not stated) | inactive: > 4 mM |

From PubChem BioAssay AID1549 (Sanford-Burnham Center for Chemical Genomics, 2009)
